Measured values from several laboratories, pooled; numbers as filed in NIAID ChemDB.

Shared fields: tests in culture; species: Mycobacterium fortuitum

ECn: concentration that inhibits the pathogen or its effect by n%. An empty or dashed field is not shown. Lines come from different laboratories, so protocols vary. MIC50, MIC90 and the like: level of inhibition, or share of isolates inhibited.

NC[C@H]1O[C@H](O[C@H]2[C@H](O)[C@@H](O[C@H]3O[C@H](CO)[C@@H](O)[C@H](N)[C@H]3O)[C@H](N)C[C@@H]2N)[C@H](N)C[C@@H]1O ; measure: MIC50 ; strain: 18 strains ; value: 16 µg/mL
N/C(=N\N=C\c1ccccc1Sc1ccc(Cl)cc1)c1ccccn1 ; measure: EC50 ; value: >100 µM
CNn1cc(C(=O)O)c(=O)c2cc(F)c(N3CCN(C)CC3)cc21 ; measure: MIC90 ; strain: 19 strains ; value: 2 µg/mL
CCN1CCN(c2c(F)cc3c(=O)c(C(=O)O)cn(C4CC4)c3c2C(F)(F)F)CC1 ; measure: MIC ; strain: ATCC 6841 ; value: 1 µg/mL
CC[C@@H](C)N1CCN(c2cc(=O)c3nc4c(oc3c2)c2c(=O)c3c(O)c(C)c5c(c34)=C(O)[C@@](C)(O/C=C/[C@H](OC)[C@@H](C)[C@@H](OC(C)=O)[C@H](C)[C@H](O)[C@H](C)[C@@H](O)[C@@H](C)/C=C/C=C(/C)C(=O)N2)O5)CC1 ; measure: MIC90 ; strain: 20 strains ; value: >100 µg/mL
C[C@H]1c2cccc(O)c2C(O)=C2C(=O)[C@]3(O)C(O)=C(C(N)=O)C(=O)[C@@H](N(C)C)[C@@H]3[C@@H](O)[C@@H]21 ; measure: MIC50 ; strain: 10 strains ; value: 4 µg/mL
CC1CN(c2nc3c(cc2F)c(=O)c(C(=O)O)cn3C2CC2)CC(C)N1 ; measure: MIC ; strain: ATCC 6841 ; value: 0.13 µg/mL
C[C@H]1COc2c(N3CCN(C)CC3)c(F)cc3c(=O)c(C(=O)O)cn1c23 ; measure: MIC50 ; strain: 48 strains ; value: 0.06 µg/mL
N/C(=N\N=C\c1ccccc1OCc1ccccc1)c1ccccn1 ; measure: EC50 ; value: >100 µM
NC1CCN(c2nc3c(cc2F)c(=O)c(C(=O)O)cn3-c2ccc(F)cc2F)C1 ; measure: MBC ; strain: ATCC 6841 ; value: 4 µg/mL
CO[C@@H]1[C@@H](O[C@@H]2O[C@H](C)[C@@H](O[C@H]3C[C@@](C)(O)[C@@H](OC(=O)CC(C)C)[C@H](C)O3)[C@H](N(C)C)[C@H]2O)[C@@H](CC=O)C[C@@H](C)[C@@H](O)/C=C/C=C/C[C@@H](C)OC(=O)C[C@H]1OC(C)=O ; measure: MIC90 ; strain: 48 strains ; value: >64 µg/mL
CO[C@H]1/C=C/O[C@@]2(C)Oc3c(C)c(O)c4c(=O)c(c5oc6cc(N7CCN(CC(C)C)CC7)cc(=O)c6nc5c4c3=C2O)NC(=O)/C(C)=C\C=C\[C@H](C)[C@H](O)[C@@H](C)[C@@H](O)[C@@H](C)[C@H](OC(C)=O)[C@@H]1C ; measure: MIC90 ; strain: 20 strains ; value: >100 µg/mL
N/C(=N\N=C\c1ccccn1)c1ccccn1 ; measure: EC50 ; value: >1000 µM
CO[C@@]1(NC(=O)Cc2cccs2)C(=O)N2C(C(=O)O)=C(COC(N)=O)CS[C@@H]21 ; measure: MIC90 ; strain: 13 strains ; value: 25 µg/mL
CCNCC1CCN(c2c(F)cc3c(=O)c(C(=O)O)cn(CC)c3c2F)C1 ; measure: MIC50 ; strain: 19 strains ; value: 1 µg/mL
CN[C@@H]1[C@@H](O)[C@@H](O[C@@H]2[C@@H](O)[C@H](O[C@H]3O[C@H](CN)CC[C@H]3N)[C@@H](N)C[C@H]2N)OC[C@]1(C)O ; measure: MIC50 ; strain: 31 isolates ; value: 8 µg/mL
CNCC1CCN(c2nc3c(cc2F)c(=O)c(C(=O)O)cn3-c2ccc(F)cc2F)C1 ; measure: MIC ; strain: ATCC 6841 ; value: 0.5 µg/mL
O=C(O)c1cn(-c2ccc(F)cc2)c2cc(N3CCNCC3)c(F)cc2c1=O ; measure: MIC50 ; strain: 19 strains ; value: 0.5 µg/mL
N/N=C(\N)c1ccccn1 ; measure: EC50 ; value: >1000 µM
CC1CN(c2nc3c(cc2F)c(=O)c(C(=O)O)cn3-c2ccc(F)cc2F)CC(C)N1 ; measure: MIC ; strain: ATCC 6841 ; value: 0.25 µg/mL
CN[C@@H]1[C@H](O)[C@H](NC)[C@H]2O[C@@]3(O)C(=O)C[C@@H](C)O[C@H]3O[C@@H]2[C@H]1O ; measure: MIC50 ; strain: 31 isolates ; value: >64 µg/mL
CO[C@H]1/C=C/O[C@@]2(C)Oc3c(C)c(O)c4c(O)c(c(/C=N/N5CCN(C)CC5)c(O)c4c3C2=O)NC(=O)/C(C)=C\C=C\[C@H](C)[C@H](O)[C@@H](C)[C@@H](O)[C@@H](C)[C@H](OC(C)=O)[C@@H]1C ; measure: MIC50 ; strain: 20 strains ; value: 50 µg/mL
CCn1cc(C(=O)O)c(=O)c2cc(F)c(N3CCNCC3)cc21 ; measure: MIC90 ; strain: 80 strains ; value: 4 µg/mL
CO[C@H]1/C=C/O[C@@]2(C)Oc3c(C)c(O)c4c(O)c(c(/C=N/N5CCN(C6CCCC6)CC5)c(O)c4c3C2=O)NC(=O)/C(C)=C\C=C\[C@H](C)[C@H](O)[C@@H](C)[C@@H](O)[C@@H](C)[C@H](OC(C)=O)[C@@H]1C ; measure: MIC90 ; strain: 48 strains ; value: 0.25 µg/mL
NC(=O)c1cnccn1 ; read by: agar ; measure: EC50 ; strain: 198 strains ; value: >25 µg/mL
CCOc1c(N2CCNC(C)C2)c(F)cc2c(=O)c(C(=O)O)cn(C3CC3)c12 ; measure: MIC ; strain: ATCC 6841 ; value: 0.06 µg/mL
CCC(C)(C)c1ccc(C=O)cc1 ; measure: EC50 ; value: >1000 µM
CC(=O)O[C@H]1C[C@@]2(C)[C@@H](C[C@@H](O)[C@H]3[C@@]4(C)CC[C@@H](O)[C@@H](C)[C@@H]4CC[C@@]32C)/C1=C(\CCC=C(C)C)C(=O)O ; measure: MIC50 ; strain: 19 strains ; value: 64 µg/mL
CC1CN(c2c(F)cc3c(=O)c(C(=O)O)cn(-c4ccc(F)cc4F)c3c2F)CCN1 ; measure: MIC ; strain: ATCC 6841 ; value: 0.5 µg/mL
CN[C@@H]1[C@@H](O)[C@@H](O[C@@H]2[C@@H](O)[C@H](O[C@H]3O[C@H](CN)CC[C@H]3N)[C@@H](N)C[C@H]2N)OC[C@]1(C)O ; measure: MIC90 ; strain: 18 strains ; value: 16 µg/mL

For reference, 3 entries again:

SMILES | read by | measure | strain | value
CC(=O)O[C@H]1C[C@@]2(C)[C@@H](C[C@@H](O)[C@H]3[C@@]4(C)CC[C@@H](O)[C@@H](C)[C@@H]4CC[C@@]32C)/C1=C(\CCC=C(C)C)C(=O)O | - | MIC50 | 19 strains | 64 µg/mL
CCNCC1CCN(c2c(F)cc3c(=O)c(C(=O)O)cn(CC)c3c2F)C1 | - | MIC50 | 19 strains | 1 µg/mL
NC[C@H]1O[C@H](O[C@H]2[C@H](O)[C@@H](O[C@H]3O[C@H](CO)[C@@H](O)[C@H](N)[C@H]3O)[C@H](N)C[C@@H]2N)[C@H](N)C[C@@H]1O | - | MIC50 | 18 strains | 16 µg/mL